Pooled drug test results. Numbers come from NIAID ChemDB, via PubChem.

Shared fields: growth or infection tests; organism: Coxsackie virus; cell line: VERO; endpoint: EC50

ECn: concentration that inhibits the pathogen or its effect by n%. Blank or dashed fields: not listed here. Rows are shuffled and stem from different studies.

S=c1[nH]nc(-c2cn(-c3ccccc3)nc2-c2ccccc2)o1 ; strain: TYPE B4 ; read by: cytopathic effect ; result: >16 µg/mL
CC1(C)[C@@H](CCO)C[C@H]1n1cnc2c(N)nc(N)nc21 ; strain: TYPE B4 ; read by: cytopathic effect ; result: >400 µg/mL
CSc1ncnc2c1cnn2Cc1cn(CCCCO)nn1 ; strain: B4 ; result: >400 µg/mL
Cc1ccc(C(=O)CCCCOc2ccc(C3=NCC(C)O3)cc2)s1 ; strain: TYPE B2 ; read by: cytopathic effect ; result: 3.08 µM
Nc1ncnc2c1ncn2[C@@H]1C=C(CCl)[C@@H](O)[C@H]1O ; strain: TYPE B4 ; read by: cytopathic effect ; result: >40 µg/mL
CC(=O)OCCOCN1C=C(C#N)C(N)=NS1(=O)=O ; strain: TYPE B4 ; result: >400 µg/mL
Nc1ncnc2c1ncn2[C@@H]1C=C(CF)[C@H](O)[C@H]1O ; strain: TYPE B4 ; read by: cytopathic effect ; result: >200 µg/mL
CC1(C)[C@@H](CCO)C[C@H]1n1nnc2c(N)nc(N)nc21 ; strain: TYPE B4 ; read by: cytopathic effect ; result: >400 µg/mL
CCOC(=O)C1=CSc2nnc(-c3cn(-c4ccccc4)nc3-c3ccccc3)n2N=C1N ; strain: TYPE B4 ; read by: cytopathic effect ; result: >16 µg/mL
CC(=O)OCCOCN1C(=O)C=CN(COCCO)S1(=O)=O ; strain: TYPE B4 ; result: >400 µg/mL
Cc1ccc(C(=O)CCCCCCOc2ccc(C3=NCCO3)cc2)s1 ; strain: TYPE B5 ; read by: cytopathic effect ; result: >26.95 µM
O=c1[nH]n2c(-c3cn(-c4ccccc4)nc3-c3ccccc3)nnc2sc1=O ; strain: TYPE B4 ; read by: cytopathic effect ; result: >80 µg/mL
O=c1[nH]cnc2c1cnn2Cc1cn(CCCCO)nn1 ; strain: B4 ; result: >400 µg/mL
CCC1COC(c2ccc(OCCCCCCC(=O)c3ccc(C)s3)cc2)=N1 ; strain: TYPE B2 ; read by: cytopathic effect ; result: >25.06 µM
Nc1nc(Cl)c2ncn([C@H]3CO[C@@H](CO)C3)c2n1 ; strain: TYPE B4 ; read by: cytopathic effect ; result: >400 µg/mL
Cc1ccc(C(=O)CCCCCCOc2ccc(C3=N[C@@H](C)CO3)cc2)s1 ; strain: TYPE B5 ; read by: cytopathic effect ; result: >25.97 µM
Nc1nc(Cl)c2ccn([C@H]3CO[C@@H](CO)C3)c2n1 ; strain: TYPE B4 ; read by: cytopathic effect ; result: >200 µg/mL
CC1=C[C@@H](n2cnc3c(N)ncnc32)[C@H](O)[C@@H]1O ; strain: TYPE B4 ; read by: cytopathic effect ; result: >200 µg/mL
CC(=O)OCCOCN1C=CC(=O)NS1(=O)=O ; strain: TYPE B4 ; result: >400 µg/mL
Cc1ccc(C(=O)CCCCOc2ccc(C3=NCCO3)cc2)s1 ; strain: TYPE B2 ; read by: cytopathic effect ; result: 2.04 µM
O=C1CSc2nnc(-c3cn(-c4ccccc4)nc3-c3ccccc3)n2N1 ; strain: TYPE B4 ; read by: cytopathic effect ; result: >16 µg/mL
CNc1ncnc2c1cnn2Cc1cn(CCCCO)nn1 ; strain: B4 ; result: >400 µg/mL
CC(=O)OCCOCN1C(N)=CC(N)=NS1(=O)=O ; strain: TYPE B4 ; result: >400 µg/mL
NC1=CC(c2ccccc2)=Nn2c(nnc2-c2cn(-c3ccccc3)nc2-c2ccccc2)S1 ; strain: TYPE B4 ; read by: cytopathic effect ; result: 80 µg/mL
CC1(C)[C@@H](CCO)C[C@H]1n1nnc2c(Cl)nc(N)nc21 ; strain: TYPE B4 ; read by: cytopathic effect ; result: >200 µg/mL

The first 3 rows once more:

structure | strain | read by | result
S=c1[nH]nc(-c2cn(-c3ccccc3)nc2-c2ccccc2)o1 | TYPE B4 | cytopathic effect | >16 µg/mL
CC1(C)[C@@H](CCO)C[C@H]1n1cnc2c(N)nc(N)nc21 | TYPE B4 | cytopathic effect | >400 µg/mL
CSc1ncnc2c1cnn2Cc1cn(CCCCO)nn1 | B4 | - | >400 µg/mL